Assay results from article doi:10.1101/772699.

Experiments:
[1] = molecular target: T1, SAP54 (Aster Yellows-Witches' Broom phytoplasma (AY-WB)) (UniProt Q2NJQ2); assay: EMSA; conditions: SAP54 without MTF
T1 sequence (looked up, limits assumed): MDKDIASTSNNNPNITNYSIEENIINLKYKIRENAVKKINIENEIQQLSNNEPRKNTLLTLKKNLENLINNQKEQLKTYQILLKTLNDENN

SEP3 + SAP54 = assay: EMSA supershift; conditions: 1 ul of 13.3 uM SAP54, supershift; protein translated in vitro
AP1 + SAP54 = assay: EMSA supershift; conditions: 1 ul of 13.3 uM SAP54, results similar to SEP3; protein translated in vitro
SEP3ΔC + SAP54 = assay: EMSA supershift; conditions: 1 ul of 13.3 uM SAP54, supershift; protein translated in vitro

## TCGAGGTCGGAAATTTAATTATATTCCAAATAAGGAAAGTATGGAACGTTCGACGGTATCGATAAGCTTGATGAAATTTAATTATATTCCAAATAAGGAAAGTATGGAACGTTATCGAATTCCTGCAGCCCGGGGGATCCACTAGTTCTAG (double strand) [two-CArG-box probe]
[1]
  binding result: no binding
SEP3 + SAP54
  binding result: binds
AP1 + SAP54
  binding result: binds
SEP3ΔC + SAP54
  binding result: binds

For at least one entry, the source does not settle the construct or the ends of the probe. For some of these results: No signal at the amounts used counts as a negative. For some of these results: Tags and fusion partners may be left off the protein sequences shown. For some of these results: At least one verdict was read from the data and is not stated in words by the source.
